Results on 27 compounds are retold here after publication PMC8011991 (Journal of medicinal chemistry, 2020).

The structures appear in SMILES notation. Some results are limits rather than exact numbers.

The assay relates to HIV-1 NL4–3 virus. The note with it: TZM-bl cells.
For the compound `COc1ccc(N(C)C(=O)[C@H](Cc2ccccc2)NC(=O)CNS(=O)(=O)c2ccc(F)cc2)cc1` [Compound 6b, (S)-2-(2-((4-fluorophenyl)sulfonamido)acetamido)-N-(4-methoxyphenyl)-N-methyl-3-phenylpropanamide], the “SI (selectivity index, ratio of CC50/EC50)” value is >5.88.
Consider `COc1ccc(N(C)C(=O)[C@H](Cc2ccccc2)NC(=O)CNS(=O)(=O)c2ccc(Cl)cc2)cc1` [Compound 6c, (S)-2-(2-((4-chlorophenyl)sulfonamido)acetamido)-N-(4-methoxyphenyl)-N-methyl-3-phenylpropanamide], for which the “SI (selectivity index, ratio of CC50/EC50)” value is reported as >3.92.
The same measure for `COc1ccc(N(C)C(=O)[C@H](Cc2ccccc2)NC(=O)CNS(=O)(=O)c2ccc(Br)cc2)cc1` [Compound 6d, (S)-2-(2-((4-bromophenyl)sulfonamido)acetamido)-N-(4-methoxyphenyl)-N-methyl-3-phenylpropanamide]: >4.35.
As to `COc1ccc(N(C)C(=O)[C@H](Cc2ccccc2)NC(=O)CNS(=O)(=O)c2c(C(C)C)cc(C(C)C)cc2C(C)C)cc1` [Compound 6e, (S)-N-(4-methoxyphenyl)-N-methyl-3-phenyl-2-(2-((2,4,6-triisopropylphenyl)sulfonamido)acetamido)propanamide], the “SI (selectivity index, ratio of CC50/EC50)” value is >4.17.
`COc1ccc(N(C)C(=O)[C@H](Cc2ccccc2)NC(=O)CNS(=O)(=O)c2ccc(OC)cc2)cc1` [Compound 6f, (S)-N-(4-methoxyphenyl)-2-(2-((4-methoxyphenyl)sulfonamido)acetamido)-N-me thyl-3-phenylpropanamide]: the “SI (selectivity index, ratio of CC50/EC50)” value is >3.77.
As to `COc1ccc(N(C)C(=O)[C@H](Cc2ccccc2)NC(=O)CNS(=O)(=O)c2ccc(C)cc2)cc1` [Compound 6g, (S)-N-(4-methoxyphenyl)-N-methyl-2-(2-((4-methylphenyl)sulfonamido)acetamido)-3-phenylpropanamide], the “SI (selectivity index, ratio of CC50/EC50)” value is reported as >6.45.
For `COc1ccc(N(C)C(=O)[C@H](Cc2ccccc2)NC(=O)CNS(=O)(=O)c2cc(C)cc(C)c2)cc1` [Compound 6h, (S)-2-(2-((3,5-dimethylphenyl)sulfonamido)acetamido)-N-(4-methoxyphenyl)-N-methyl-3-phenylpropanamide], the “SI (selectivity index, ratio of CC50/EC50)” value was >4.26.
The same measure for `COc1ccc(N(C)C(=O)[C@H](Cc2ccccc2)NC(=O)CNS(=O)(=O)c2c(C)cc(C)cc2C)cc1` [Compound 6i, (S)-N-(4-methoxyphenyl)-N-methyl-3-phenyl-2-(2-((2,4,6-trimethylphenyl)sulfon amido)acetamido)propanamide]: >3.57; for `COc1ccc(N(C)C(=O)[C@H](Cc2ccccc2)NC(=O)CNS(=O)(=O)c2ccccc2F)cc1` [Compound 6j, (S)-2-(2-((2-fluorophenyl)sulfonamido)acetamido)-N-(4-methoxyphenyl)-N-methyl-3-phenylpropanamide]: >3.70; for `COc1ccc(N(C)C(=O)[C@H](Cc2ccccc2)NC(=O)CNS(=O)(=O)c2ccccc2[N+](=O)[O-])cc1` [Compound 6m, (S)-N-(4-methoxyphenyl)-N-methyl-2-(2-((2-nitrophenyl)sulfonamido)acetamido) −3-phenylpropanamide]: >4.35.
The same measure for `COc1ccc(N(C)C(=O)[C@H](Cc2ccccc2)NC(=O)CNS(=O)(=O)c2cccc([N+](=O)[O-])c2)cc1` [Compound 6n, (S)-N-(4-methoxyphenyl)-N-methyl-2-(2-((3-nitrophenyl)sulfonamido)acetamido) −3-phenylpropanamide]: >4.26; for `COc1ccc(N(C)C(=O)[C@H](Cc2ccccc2)NC(=O)CNS(=O)(=O)c2ccc(N)cc2)cc1` [Compound 6o, (S)-2-(2-((4-aminophenyl)sulfonamido)acetamido)-N-(4-methoxyphenyl)-N-methyl-3-phenylpropanamide]: >6.06.
As for `COc1ccc(N(C)C(=O)[C@H](Cc2ccccc2)NC(=O)CNS(=O)(=O)c2ccccc2N)cc1` [Compound 6p, (S)-2-(2-((2-aminophenyl)sulfonamido)acetamido)-N-(4-methoxyphenyl)-N-methyl-3-phenylpropanamide], the “SI (selectivity index, ratio of CC50/EC50)” value is recorded as >4.44.
With `COc1ccc(N(C)C(=O)[C@H](Cc2ccccc2)NC(=O)CNS(=O)(=O)c2cccc(N)c2)cc1` [Compound 6q, (S)-2-(2-((3-aminophenyl)sulfonamido)acetamido)-N-(4-methoxyphenyl)-N-methyl-3-phenylpropanamide], the “SI (selectivity index, ratio of CC50/EC50)” value is >4.88.
In the case of `COc1ccc(N(C)C(=O)[C@H](Cc2ccccc2)NC(=O)CN2C(=O)Nc3ccc(C)cc3S2(=O)=O)cc1` [Compound 8b, (S)-N-(4-methoxyphenyl)-N-methyl-2-(2-(7-methyl-1,1-dioxido-3-oxo-3,4-dihydro −2H-benzo[e][1,2,4]thiadiazin-2-yl)acetamido)-3-phenylpropanamide], the “SI (selectivity index, ratio of CC50/EC50)” value is given as >6.25.
The same measure for `COc1ccc(N(C)C(=O)[C@H](Cc2ccccc2)NC(=O)CN2C(=O)Nc3ccc(OC)cc3S2(=O)=O)cc1` [Compound 8c, (S)-2-(2-(7-methoxy-1,1-dioxido-3-oxo-3,4-dihydro-2H-benzo[e][1,2,4]thiadiazin-2-yl)acetamido)-N-(4-methoxyphenyl)-N-methyl-3-phenylpropanamide]: >7.41; for `COc1ccc(N(C)C(=O)[C@H](Cc2ccccc2)NC(=O)CN2C(=O)N(CC(=O)N[C@@H](Cc3ccccc3)C(=O)N(C)c3ccc(OC)cc3)S(=O)(=O)c3cc(F)ccc32)cc1` [Compound 8d, (2S,2’S)-2,2’-((2,2’-(7-fluoro-1,1-dioxido-3-oxo-2H-benzo[e][1,2,4]thiadiazine-2,4(3H)-diyl)bis(acetyl))bis(azanediyl))bis(N-(4-methoxyphenyl)-N-methyl-3-phenylpropanamide)]: >6.06; for `COc1ccc(N(C)C(=O)[C@H](Cc2ccccc2)NC(=O)CN2C(=O)N(CC(=O)N[C@@H](Cc3ccccc3)C(=O)N(C)c3ccc(OC)cc3)S(=O)(=O)c3cc(Cl)ccc32)cc1` [Compound 8e, (2S,2’S)-2,2’-((2,2’-(7-chloro-1,1-dioxido-3-oxo-2H-benzo[e][1,2,4]thiadiazine-2,4(3H)-diyl)bis(acetyl))bis(azanediyl))bis(N-(4-methoxyphenyl)-N-methyl-3-phenylpropanamide)]: >4.76.
Turning to `COc1ccc(N(C)C(=O)[C@H](Cc2ccccc2)NC(=O)CN2C(=O)N(CC(=O)N[C@@H](Cc3ccccc3)C(=O)N(C)c3ccc(OC)cc3)S(=O)(=O)c3cc(Br)ccc32)cc1` [Compound 8f, (2S,2’S)-2,2’-((2,2’-(7-bromo-1,1-dioxido-3-oxo-2H-benzo[e][1,2,4]thiadiazine-2,4 (3H)-diyl)bis(acetyl))bis(azanediyl))bis(N-(4-methoxyphenyl)-N-methyl-3-phenylpropanamide)], the “SI (selectivity index, ratio of CC50/EC50)” value is given as >3.85.
Turning to `COc1ccc(N(C)C(=O)[C@H](Cc2ccccc2)NC(=O)CN2CCN(S(=O)(=O)c3ccccc3)CC2=O)cc1` [Compound 11a, (S)-N-(4-methoxyphenyl)-N-methyl-2-(2-(2-oxo-4-(phenylsulfonyl)piperazin-1-yl)acetamido)-3-phenylpropanamide], the “SI (selectivity index, ratio of CC50/EC50)” value is recorded as >95.22.
Take `COc1ccc(N(C)C(=O)[C@H](Cc2ccccc2)NC(=O)CN2CCN(S(=O)(=O)c3cccc(F)c3)CC2=O)cc1` [Compound 11c, (S)-2-(2-(4-((3-fluorophenyl)sulfonyl)-2-oxopiperazin-1-yl)acetamido)-N-(4-methoxyphenyl)-N-methyl-3-phenylpropanamide]: the “SI (selectivity index, ratio of CC50/EC50)” value is listed as >76.96.
Consider `COc1ccc(N(C)C(=O)[C@H](Cc2ccccc2)NC(=O)CN2CCN(S(=O)(=O)c3ccccc3F)CC2=O)cc1` [Compound 11d, (S)-2-(2-(4-((2-fluorophenyl)sulfonyl)-2-oxopiperazin-1-yl)acetamido)-N-(4-methoxyphenyl)-N-methyl-3-phenylpropanamide], for which the “SI (selectivity index, ratio of CC50/EC50)” value is listed as >71.36.
Turning to `COc1ccc(N(C)C(=O)[C@H](Cc2ccccc2)NC(=O)CN2CCN(S(=O)(=O)c3ccc(Cl)cc3)CC2=O)cc1` [Compound 11e, (S)-2-(2-(4-((4-chlorophenyl)sulfonyl)-2-oxopiperazin-1-yl)acetamido)-N-(4-methoxyphenyl)-N-methyl-3-phenylpropanamide], the “SI (selectivity index, ratio of CC50/EC50)” value is >31.73.
As for `COc1ccc(N(C)C(=O)[C@H](Cc2ccccc2)NC(=O)CN2CCN(S(=O)(=O)c3ccc(Br)cc3)CC2=O)cc1` [Compound 11f, (S)-2-(2-(4-((4-bromophenyl)sulfonyl)-2-oxopiperazin-1-yl)acetamido)-N-(4-methoxyphenyl)-N-methyl-3-phenylpropanamide], the “SI (selectivity index, ratio of CC50/EC50)” value is recorded as >87.05.
Regarding `COc1ccc(N(C)C(=O)[C@H](Cc2ccccc2)NC(=O)CN2CCN(S(=O)(=O)c3ccc(OC)cc3)CC2=O)cc1` [Compound 11g, (S)-N-(4-methoxyphenyl)-2-(2-(4-((4-methoxyphenyl)sulfonyl)-2-oxopiperazin-1-yl)acetamido)-N-methyl-3-phenylpropanamide], the “SI (selectivity index, ratio of CC50/EC50)” value is given as >52.63.
Take `COc1ccc(N(C)C(=O)[C@H](Cc2ccccc2)NC(=O)CN2CCN(S(=O)(=O)c3ccc(C)cc3)CC2=O)cc1` [Compound 11h, (S)-N-(4-methoxyphenyl)-N-methyl-2-(2-(2-oxo-4-tosylpiperazin-1-yl)acetamido)-3-phenylpropanamide]: the “SI (selectivity index, ratio of CC50/EC50)” value is recorded as >68.98.
As to `COc1ccc(N(C)C(=O)[C@H](Cc2ccccc2)NC(=O)CN2CCN(S(=O)(=O)c3cccc([N+](=O)[O-])c3)CC2=O)cc1` [Compound 11j, (S)-N-(4-methoxyphenyl)-N-methyl-2-(2-(4-((3-nitrophenyl)sulfonyl)-2-oxopiperazin-1-yl)acetamido)-3-phenylpropanamide], the “SI (selectivity index, ratio of CC50/EC50)” value is recorded as >48.75.
